According to patent US10408837B2 (priority 2013, dated 2019):
Read-outs that look alike come from different tables or passages of the source.

Target: BoNT/E (Clostridium botulinum, UniProt Q00496)
Details: peak ratio of cleavage product versus internal standard

Sequence: IIGNLRHMALDMGNEIDTQNRQIDRIMEKADSNKT
- CT-product (Peak ratio) (activated toxin, 0.15 mLD50): 1.07
- CT-product (Peak ratio) (unactivated toxin, 100 mLD50): 0.40
